A mixed list of measured activities; the numbers were collected in NIAID ChemDB.

Shared fields: toxicity to cultured cells; cells: Jurkat cells; measure: CC50

Neighbouring rows are from separate reports.

| smiles | read by | result |
|---|---|---|
| COc1c(/C=C/C(=O)c2ccc(-c3ccccc3)cc2)ccc2ccccc12 | MTT | 3–15 µM |
| COc1cc(OC)c2c(=O)cc(-c3ccc(OCCCN4CCN(C)CC4)c(NC(=O)CCCN(C)C)c3)n(C)c2c1 | MTT | >100 µM |
| COc1cc2c(cc1OCCC(=O)Nc1cc(C(=O)Nc3cc(C(=O)Nc4cc(C(=O)NCCC(=N)N)n(C)c4)n(C)c3)n(C)c1)N=C[C@@H]1CCCN1C2=O | - | 62 µM |
| COC(=O)C1=C2Nc3ccccc3[C@@]23CCN2[C@H](O)[C@]4(CC5C[C@]67CC(=O)O[C@H]6CCC6NC[C@@]8(c9cccc(OC)c9N(C4)[C@@H]58)[C@@H]67)[C@@H]4OCC[C@]4(C1)[C@H]23 | absorbance | 0.5 µM |
| CC[C@@H]1/C=C(\C)C[C@H](C)C[C@H](OC)[C@H]2O[C@@](O)(C(=O)C(=O)N3CCCC[C@H]3C(=O)O[C@H](/C(C)=C/[C@H]3CC[C@H](O)[C@H](OC)C3)[C@H](C)[C@@H](O)CC1=O)[C@H](C)C[C@@H]2OC | - | 50 µg/mL |
| COc1cc(OC)c2c(=O)cc(-c3ccc(O)c(N)c3)n(C)c2c1 | MTT | >100 µM |
| Cn1cc(C(=O)O)c(=O)c2cc(N)c(N3CCN(c4ccccn4)CC3)cc21 | MTT | 56.24 µM |
| COc1cc2c(cc1OCCC(=O)Nc1cc(C(=O)NCCC(=N)N)n(C)c1)N=C[C@@H]1CCCN1C2=O | - | 3 µM |
| COc1c(/C=C/C(=O)c2ccc(Br)cc2)ccc2ccccc12 | MTT | 3–15 µM |
| C/C(=N\NC(=O)c1ccc(Cl)cc1)c1cccc(/C(C)=N/NC(=O)c2ccc(Cl)cc2)n1 | MTT | >100 µM |
| COC(=O)CCOc1cc2c(cc1OC)C(=O)N1CCC[C@H]1C=N2 | - | 0.06 µM |
| COc1cc(OC)c2c(=O)cc(-c3ccc(OCCCN)c(NC(=O)CCCN(C)C)c3)n(C)c2c1 | MTT | >100 µM |
| COc1ccc2c(Cc3c4ccccc4cc4ccccc34)cncc2c1O | fluorescence | >10 µM |
| COc1c(/C=C/C(=O)c2ccc(F)cc2)ccc2ccccc12 | MTT | 3–15 µM |
| COc1cc(OC)c2c(=O)cc(-c3ccc(OCCCN4CCCCC4)c(N)c3)n(C)c2c1 | MTT | >100 µM |
| O=C(O)CS(=O)c1ccc2c3c(cccc13)C(=O)c1ccccc1-2 | fluorescence | >10 µM |

2 of the rows above, restated:

| smiles | read by | result |
|---|---|---|
| O=C(O)CS(=O)c1ccc2c3c(cccc13)C(=O)c1ccccc1-2 | fluorescence | >10 µM |
| COC(=O)CCOc1cc2c(cc1OC)C(=O)N1CCC[C@H]1C=N2 | - | 0.06 µM |

Blank or dashed fields: not listed here. CCn: concentration that lowers growth or viability of the cells by n%. Two numbers with a dash give a range or band.